“And” between values parts separate entries of the source, which are not always exact repeats. Identical values can stand only once.
Tested on: HCV 1b replicon cells (Huh-7.5.1)
Experiment: Anti-HCV assay, HCV 1b replicon cells with luciferase reporter
Type: cell-based, hepatitis C virus (HCV) subtype 1b
Conditions: calculated as CC50/EC50
Protocol: The HCV replicons were validated as convenient and effective models for testing the anti-HCV activity. Since HCV subtype 1b is one of the major subtypes worldwide, especially in China, the replicon model from the Huh-7.5.1 cell line integrating HCV 1b genome encoding the nonstructural proteins was chosen to evaluate the anti-HCV activities of 3-hydroxyquinazoline-2,4(1H,3H)-diones. The inhibitory rates of the compounds on HCV replicon cells were determined at concentrations of 25 μM and 10 μM, respectively. The broad-spectrum antiviral drug ribavirin (RBV) and the NS5B nucleoside inhibitor 2′-C-methyladenosine (2CMA) were selected as positive controls. The cytotoxicity of these compounds on replicon cells was determined using the cell counting kit-8 (CCK-8) assay.
HCV 1b replicon cells (Huh-7.5.1) containing luciferase reporter gene were kindly provided by Prof. Zhenghong Yuan (Key Laboratory of Medical Molecular Virology, Fudan University, Shanghai, China). The replicon cells were plated at 1.5 × 10^4 cells per well in a 48-well plate (Corning Inc., New York, NY, USA) at 5% CO2/37 °C. The culture medium was Dulbecco’s Modified Eagle Medium (DMEM, pH 7.3, Shanghai XP Biomed Ltd., Shanghai, China) containing 10% fetal bovine serum (Shanghai XP Biomed Ltd., Shanghai, China), 10^5 U/L penicillin, 0.1 g/L streptomycin, and 0.5 μg/mL blasticidin. After 12 h, the culture medium in each well was replaced with 300 μL of pre-prepared fresh culture medium containing test compound (dissolved in DMSO with specific concentration) or blank DMSO. The final concentration of DMSO in the culture medium in the plate was 0.1%. Each group was tested at least twice in parallel. Ribavirin and 2CMA were used as the positive controls. After incubating the drug-added plate at 5% CO2/37 °C for 72 h, the medium was removed, and each well was washed with 300 μL of phosphate buffer solution (PBS, Shanghai XP Biomed Ltd., Shanghai, China). The cells in each well were then lysed with 50 μL of 1× lysis buffer (E2820, Promega, Madison, WI, USA). Subsequently, 50 μL of 1× luciferase assay substrate (E2820, Promega, Madison, WI, USA) was mixed with 20 μL of the harvested cell lysates.
The inhibitory rates under at least six different concentration gradients were imported into GraphPad Prism 7.0 software to calculate the anti-HCV EC50 values of the compounds using the nonlinear fitting method.

In the case of CCn1c(=O)n(O)c(=O)c2ccc(-c3ccccc3)cc21 [23e, 1-Ethyl-3-hydroxy-7-phenylquinazoline-2,4(1H,3H)-dione], the “TI (therapeutic index)” value is reported as 1.5.
In the case of O=c1[nH]c2cc(-c3ccc(F)c(Cl)c3)ccc2c(=O)n1O [21l, 7-(3-Chloro-4-fluorophenyl)-3-hydroxyquinazoline-2,4(1H,3H)-dione], the “TI (therapeutic index)” value is reported as 5.2.
Cc1ccc(F)cc1-c1ccc2c(=O)n(O)c(=O)[nH]c2c1 [21p, 7-(5-Fluoro-2-methylphenyl)-3-hydroxyquinazoline-2,4(1H,3H)-dione] was tested, and the “TI (therapeutic index)” value was 1.4.
O=c1[nH]c2ccc(-c3ccc(F)cc3)cc2c(=O)n1O [21b, 6-(4-Fluorophenyl)-3-hydroxyquinazoline-2,4(1H,3H)-dione] was tested, and the “TI (therapeutic index)” value was 1.3.
In the case of O=c1[nH]c2cc(-c3cc4ccccc4o3)ccc2c(=O)n1O [21t, 7-(Benzofuran-2-yl)-3-hydroxyquinazoline-2,4(1H,3H)-dione], the “TI (therapeutic index)” value is reported as over 25.
For Cn1c(=O)n(O)c(=O)c2ccc(-c3ccccc3)cc21 [23b, 3-Hydroxy-1-methyl-7-phenylquinazoline-2,4(1H,3H)-dione], the “TI (therapeutic index)” value was 1.7.
In the case of O=c1[nH]c2ccc(-c3cccc([N+](=O)[O-])c3)cc2c(=O)n1O [21d, 3-Hydroxy-6-(3-nitrophenyl)quinazoline-2,4(1H,3H)-dione], the “TI (therapeutic index)” value is reported as 1.4.
For O=c1[nH]c2cc(-c3ccccc3)ccc2c(=O)n1O [21e, 3-Hydroxy-7-phenylquinazoline-2,4(1H,3H)-dione], the “TI (therapeutic index)” value was 1.7.
In the case of O=c1c2ccccc2n(CCc2ccc(F)cc2)c(=O)n1O [10d, 1-(4-Fluorophenethyl)-3-hydroxyquinazoline-2,4(1H,3H)-dione], the “TI (therapeutic index)” value is reported as 1.7.
O=C(Cn1c(=O)n(O)c(=O)c2ccc(-c3ccco3)cc21)Nc1ccccc1Cl [23j, N-(2-Chlorophenyl)-2-(7-(furan-2-yl)-3-hydroxy-2,4-dioxo-3,4-dihydroquinazolin-1(2H)-yl)acetamide] was tested, and the “TI (therapeutic index)” value was 2.3.
Nc1ccccc1-c1ccc2c(=O)n(O)c(=O)[nH]c2c1 [21g, 7-(2-Aminophenyl)-3-hydroxyquinazoline-2,4(1H,3H)-dione] was tested, and the “TI (therapeutic index)” value was 1.1–1.8 and 1.8.
In the case of N#Cc1ccc(NC(=O)Cn2c(=O)n(O)c(=O)c3ccccc32)cc1 [10n, N-(4-Cyanophenyl)-2-(3-hydroxy-2,4-dioxo-3,4-dihydroquinazolin-1(2H)-yl)acetamide], the “TI (therapeutic index)” value is reported as 1.7.
For NC(=O)c1ncn([C@@H]2O[C@H](CO)[C@@H](O)[C@H]2O)n1 [RBV, ribavirin, reference compound], the “TI (therapeutic index)” value was 2.3.
In the case of COc1ccc(-c2ccc3[nH]c(=O)n(O)c(=O)c3c2)cc1 [21c, 3-Hydroxy-6-(4-methoxyphenyl)quinazoline-2,4(1H,3H)-dione], the “TI (therapeutic index)” value is reported as 2.1.
For COc1ccc(-c2ccc3c(=O)n(O)c(=O)n(C)c3c2)cc1 [23d, 3-Hydroxy-7-(4-methoxyphenyl)-1-methylquinazoline-2,4(1H,3H)-dione], the “TI (therapeutic index)” value was 2.8.
In the case of Cn1c(=O)n(O)c(=O)c2cc(-c3cccc([N+](=O)[O-])c3)ccc21 [23a, 3-Hydroxy-1-methyl-6-(3-nitrophenyl)quinazoline-2,4(1H,3H)-dione], the “TI (therapeutic index)” value is reported as 2.3.
O=c1[nH]c2cc(-c3ccc(F)cc3F)ccc2c(=O)n1O [21n, 7-(2,4-Difluorophenyl)-3-hydroxyquinazoline-2,4(1H,3H)-dione] was tested, and the “TI (therapeutic index)” value was 2.9.
For O=c1[nH]c2cc(-c3ccc(F)cc3)ccc2c(=O)n1O [21f, 7-(4-Fluorophenyl)-3-hydroxyquinazoline-2,4(1H,3H)-dione], the “TI (therapeutic index)” value was 1.3.
O=c1[nH]c2cc(-c3ccc(C(F)(F)F)cc3)ccc2c(=O)n1O [21h, 3-Hydroxy-7-(4-(trifluoromethyl)phenyl)quinazoline-2,4(1H,3H)-dione] was tested, and the “TI (therapeutic index)” value was over 5.2.
With COc1ccc(-c2ccc3c(=O)n(O)c(=O)[nH]c3c2)cc1F [21o, 7-(3-Fluoro-4-methoxyphenyl)-3-hydroxyquinazoline-2,4(1H,3H)-dione] the “TI (therapeutic index)” value was 1.1–1.8 and 1.1.
For Nc1cccc(-c2ccc3c(=O)n(O)c(=O)[nH]c3c2)c1 [21j, 7-(3-Aminophenyl)-3-hydroxyquinazoline-2,4(1H,3H)-dione], the “TI (therapeutic index)” value was 1.1–1.8 and 1.8.
For O=c1[nH]c2ccc(-c3ccccc3)cc2c(=O)n1O [21a, 3-Hydroxy-6-phenylquinazoline-2,4(1H,3H)-dione], the “TI (therapeutic index)” value was 1.3.
With O=C(Cn1c(=O)n(O)c(=O)c2ccccc21)Nc1ccc(C(F)(F)F)cc1 [10p, 2-(3-Hydroxy-2,4-dioxo-3,4-dihydroquinazolin-1(2H)-yl)-N-(4-(trifluoromethyl)phenyl)acetamide] the “TI (therapeutic index)” value was 1.9.
For O=C(Cn1c(=O)n(O)c(=O)c2ccccc21)c1ccccc1 [10e, 3-Hydroxy-1-(2-oxo-2-phenylethyl)quinazoline-2,4(1H,3H)-dione], the “TI (therapeutic index)” value was 1.2.
For O=c1[nH]c2cc(Br)ccc2c(=O)n1O [compound 19, 7-Bromo-3-hydroxyquinazoline-2,4(1H,3H)-dione], the “TI (therapeutic index)” value was 2.0.
In the case of Cn1c(=O)n(O)c(=O)c2ccc(-c3ccc(F)cc3)cc21 [23c, 7-(4-Fluorophenyl)-3-hydroxy-1-methylquinazoline-2,4(1H,3H)-dione], the “TI (therapeutic index)” value is reported as 1.8.
For C[C@@]1(O)[C@H](O)[C@@H](CO)O[C@H]1n1cnc2c(N)ncnc21 [2CMA, 2′-C-methyladenosine, reference compound], the “TI (therapeutic index)” value was over 27.
With COc1ccc(-c2ccc3c(=O)n(O)c(=O)[nH]c3c2)cc1 [21i, 3-Hydroxy-7-(4-methoxyphenyl)quinazoline-2,4(1H,3H)-dione] the “TI (therapeutic index)” value was 1.1–1.8 and 1.6.
O=c1[nH]c2cc(-c3cccc([N+](=O)[O-])c3)ccc2c(=O)n1O [21k, 3-Hydroxy-7-(3-nitrophenyl)quinazoline-2,4(1H,3H)-dione] was tested, and the “TI (therapeutic index)” value was 11.7.
O=c1[nH]c2cc(-c3ccco3)ccc2c(=O)n1O [21s, 7-(Furan-2-yl)-3-hydroxyquinazoline-2,4(1H,3H)-dione] was tested, and the “TI (therapeutic index)” value was 4.1.
